Measured values from several laboratories, pooled; numbers as filed in NIAID ChemDB.

Shared fields: growth or infection tests; species: HIV-1; cell line: MT-4; read-out: EC50

Blank or dashed fields: not listed here.

CC(C)(C)n1cc(C(=O)O)c(=O)c2cc(I)c(Oc3ccnc(Nc4ccc(C#N)cc4)n3)cc21 ; strain: IIIB ; read by: MTT ; value: 0.57 µM
CC(=O)O[C@@]12C[C@@H](C)[C@@]3(O)[C@@H](C=C(CO)C[C@]4(O)C(=O)C(C)=C[C@@H]34)[C@@H]1C2(C)C ; strain: NDK Subtype D ; read by: cytopathic effect / MTT ; value: 0.07 µg/mL
CC1(C)S[C@H]([C@H](NC(=O)Cc2ccccc2)C(=O)NCc2ccccc2)N[C@H]1C(=O)N[C@H](Cc1ccccc1)[C@H](O)CC(=O)NCc1ccccc1 ; strain: RF ; read by: p24 ; value: 3 µM
O=c1[nH]cnc2c1ncn2[C@H]1CC[C@@H](CO)O1 ; strain: AJ-05.93 (HXB2(RT-L74V)) ; changes: RT-L74V ; read by: cytopathic effect ; value: 83.7 µM
COC(=O)[C@@H](NC(=O)Cc1ccccc1)[C@@H]1N[C@@H](C(=O)NCCNC(=O)[C@@H]2N[C@@H]([C@H](NC(=O)Cc3ccccc3)C(=O)OC)SC2(C)C)C(C)(C)S1 ; strain: RF ; read by: syncytia ; value: >100 µM
NC(N)=NCCCNc1ccc2[nH]ccc2c1.O=S(O)O ; strain: IIIB ; read by: MTT ; value: >38.03 µM
CCOCn1c2c(c(=O)[nH]c1=O)Nc1ccc(C)cc1S2 ; read by: cytopathic effect / MTT ; value: 1.4 µg/mL
Cc1cc(C#N)cc(C)c1Oc1nc(Nc2ccc(C#N)cc2)nc(N)c1Br ; strain: IIIB ; read by: MTT ; value: 0.0019 µM
O=c1[nH]cnc2c1ncn2[C@H]1CC[C@@H](CO)O1 ; strain: XM-T69SSS ; changes: RT-T69SSS L210W T215Y ; read by: p24 ; value: <8.8 µM
O=[N+]([O-])c1ccc(CN2CCC(N=C3C=C(Cc4ccc(Cl)cc4Cl)NS(=O)(=O)N3)CC2)cc1 ; strain: IIIB ; read by: MTT ; value: 22.94 µM
COC(=O)CNP(=O)(OC[C@H]1C=C[C@@H](n2cnc3c(N)ncnc32)C1)Oc1ccccc1 ; strain: IIIB ; read by: cytopathic effect / MTS ; value: 7.3 µM
CCN1c2cc(C)c(C)cc2N(C)S(=O)(=O)c2cccnc21 ; strain: HE ; read by: cytopathic effect ; value: 0.3 µM
COC(=O)C[C@@H](NP(=O)(OC[C@H]1C=C[C@@H](n2cnc3c(N)ncnc32)C1)Oc1ccccc1)C(=O)OC ; strain: IIIB ; read by: cytopathic effect / trypan blue ; value: 3.9 µM
Cc1cn([C@H]2C[C@H](N=[N+]=[N-])[C@@H](CO)O2)c(=O)[nH]c1=O ; strain: IIIB ; changes: NNRTI-resistant (RT K103N) ; read by: MTT ; value: 0.00524 µM
CCC(Cc1ccccc1)c1cc(O)c(C(c2cccc(NS(=O)(=O)c3cccc4cccnc34)c2)C2CC2)c(=O)o1 ; strain: IIIB ; read by: p24 ; value: 2.3 µM
CN=C(N)NCCCNc1ccc2[nH]ccc2c1 ; strain: IIIB ; read by: MTT ; value: >144 µM
Cc1cn([C@H]2C[C@H](N=[N+]=[N-])[C@@H](CO)O2)c(=O)[nH]c1=O ; read by: MTT ; value: 0.0004 µM
CCN1c2ncccc2N(C)C(=S)c2sc3cccnc3c21 ; strain: IIIB ; read by: cytopathic effect ; value: 0.0035 µM
CN=C(N)NCCNc1ccc2[nH]ccc2c1 ; strain: IIIB ; read by: MTT ; value: >277 µM
O=S1(=O)NC(Cc2cccc3ccccc23)=CC(=NC2CCN(Cc3ccc(F)cc3)CC2)N1 ; strain: IIIB ; read by: MTT ; value: 29.78 µM
O=c1[nH]cnc2c1ncn2[C@H]1CC[C@@H](CO)O1 ; strain: IIIB ; read by: cytopathic effect / MTT ; value: 2.17 µg/mL
CC(C)(C)n1cc(C(=O)O)c(=O)c2cc(Br)c(Oc3ccnc(Nc4ccc(C#N)cc4)n3)cc21 ; strain: IIIB ; read by: MTT ; value: 1.57 µM
Cc1cc(O)c(C(c2cccc(NS(=O)(=O)c3cn(C)cn3)c2)C2CC2)c(=O)o1 ; strain: IIIB ; read by: p24 ; value: >>3 µM
Cc1ccc2c(c1)Sc1c(c(=O)[nH]c(=O)n1COCc1ccccc1)N2 ; read by: cytopathic effect / MTT ; value: >1.9 µg/mL
O=S1(=O)NC(Cc2ccc(Cl)cc2Cl)=CC(=NC2CCN(Cc3ccc(Br)cc3)CC2)N1 ; strain: IIIB ; read by: MTT ; value: 23.28 µM
NC(=NCCCNc1ccc2[nH]ccc2c1)N[N+](=O)[O-] ; strain: IIIB ; read by: MTT ; value: >360 µM
CO[P@](=O)(c1cc(C)cc(/C=C/C#N)c1)c1c(C(N)=O)[nH]c2ccc(Cl)cc12 ; strain: BH10 ; changes: K103N ; value: 0.0001 µM
CN[C@H]1CO[C@@H]2OCC[C@H](OC(=O)N[C@@H](Cc3cccc(OC)c3)[C@H](O)CN(CC(C)C)S(=O)(=O)c3ccc4nc(NC(C)C)sc4c3)[C@@H]21 ; strain: NL4-3 ; read by: p24 / luminescence ; value: 0.03 µM
Cc1cn([C@H]2C[C@H](N=[N+]=[N-])[C@@H](CO)O2)c(=O)[nH]c1=O ; strain: XM-M184V ; changes: RT-M184V ; read by: p24 ; value: <0.009 µM
NC(N)=NCCNc1ccc2[nH]ccc2c1.O=S(O)O ; strain: IIIB ; read by: MTT ; value: >77.68 µM
COC(=O)[C@H](C)NP(=O)(OC[C@H]1C=C[C@@H](n2cnc3c(N)ncnc32)C1)Oc1ccc(Cl)cc1 ; strain: IIIB ; read by: cytopathic effect / MTS ; value: 0.013 µM
Cc1cn([C@H]2C=C[C@@H](CO)O2)c(=O)[nH]c1=O ; strain: NI-10.93 (HXB2 RT T69N K70R Q151M) ; changes: RT-T69N K70R Q151M ; read by: cytopathic effect ; value: >6 µM
Cc1cc(C#N)cc(C)c1Oc1nc(NC2CCN(Cc3cccc(C(N)=O)c3)CC2)nc2sccc12 ; strain: IIIB ; changes: NNRTI-resistant (RT L100I) ; read by: MTT ; value: 0.0105 µM
c1cc2cc(NCCNC3=NCCCN3)ccc2[nH]1 ; strain: IIIB ; read by: MTT ; value: 24.76 µM
Cc1cc(C#N)cc(C)c1Oc1nc(Nc2ccc(C#N)cc2)nc(N)c1Br ; strain: IIIB ; read by: MTT ; value: 0.0041 µM
COC(=O)[C@@H](CC(C)C)NP(=O)(OC[C@H]1C=C[C@@H](n2cnc3c(N)ncnc32)C1)Oc1ccccc1 ; strain: IIIB ; read by: cytopathic effect / trypan blue ; value: 1.24 µM
COc1ccc2c(O)c(C(c3cccc(NS(=O)(=O)c4ccc(C#N)cc4)c3)C3CC3)c(=O)oc2c1 ; strain: IIIB ; read by: p24 ; value: >>10 µM
CCOCn1c2c(c(=O)[nH]c1=O)Nc1ccc(Cl)cc1S2 ; read by: cytopathic effect / MTT ; value: 1.4 µg/mL
CC(C)=CCN1Cc2cc(Cl)cc3[nH]c(=S)n(c23)C[C@@H]1C ; strain: IIIB ; read by: cytopathic effect ; value: 0.003 µM
COC(=O)[C@@H](Cc1ccccc1)NP(=O)(OC[C@H]1C=C[C@@H](n2cnc3c(N)ncnc32)C1)Oc1ccccc1 ; strain: IIIB ; read by: cytopathic effect / trypan blue ; value: 13.3 µM
NC(=NCC(=O)NCCNc1ccc2[nH]ccc2c1)N[N+](=O)[O-] ; strain: IIIB ; read by: MTT ; value: >391 µM
CC(C)CN(C[C@@H](O)[C@H](Cc1ccccc1)NC(=O)O[C@H]1CCO[C@H]2OCC[C@H]21)S(=O)(=O)c1ccc2nc(NC3CC3)sc2c1 ; strain: NL4-3 ; changes: L10F L33I M36I M46I I54V K55R I62V L63P A71V G73S V82T ; read by: p24 / luminescence ; value: 0.0043 µM
O=S1(=O)NC(Cc2cccc3ccccc23)=CC(=NC2CCN(Cc3ccc(Br)cc3)CC2)N1 ; strain: RES056 ; changes: RT-K103N Y181C ; read by: MTT ; value: >83.78 µM
CC(=O)Oc1ccc(/C=C/C(=O)O[C@H](C(=O)O)[C@H](OC(=O)/C=C/c2ccc(OC(C)=O)c(OC(C)=O)c2)C(=O)O)cc1OC(C)=O ; strain: NL4-3 ; changes: AMD2763-resistant ; read by: cytopathic effect / MTT ; value: >93 µM
Cc1cn([C@H]2C[C@H](N=[N+]=[N-])[C@@H](CO)O2)c(=O)[nH]c1=O ; strain: IIIB ; read by: MTT ; value: 0.0056 µM
CCN[C@H]1CO[C@@H]2OCC[C@H](OC(=O)N[C@@H](Cc3cccc(OC)c3)[C@H](O)CN(CC(C)C)S(=O)(=O)c3ccc4nc(NC(C)C)sc4c3)[C@@H]21 ; strain: NL4-3 ; changes: L10I I15V K20R L24I V32I M36I M46I L63P K70Q V82A I84V L89M ; read by: p24 / luminescence ; value: 0.016 µM
COC(=O)[C@H](Cc1ccc(O)cc1)NP(=O)(OC[C@H]1C=C[C@@H](n2cnc3c(N)ncnc32)C1)Oc1ccccc1 ; strain: IIIB ; read by: cytopathic effect / MTS ; value: 0.95 µM
COC(=O)N[C@H](C(=O)N[C@@H](Cc1ccccc1)[C@@H](O)CN(Cc1ccc(-c2ccccn2)cc1)NC(=O)[C@@H](NC(=O)OC)C(C)(C)C)C(C)(C)C ; strain: NL4-3 ; changes: L10I M46L I54V V82A ; read by: p24 / luminescence ; value: 54 µM
Cc1cc(C#N)cc(C)c1Oc1nc(NC2CCC(NCc3ccc(Br)cc3)CC2)nc2ccsc12 ; strain: IIIB ; changes: NNRTI-resistant (RT Y181C) ; read by: MTT ; value: >3.45 µM
Nc1ccn([C@H]2CC[C@@H](CO)O2)c(=O)n1 ; strain: HXB2D ; read by: p24 ; value: 0.5 µM
Cc1cc(C#N)cc(C)c1Oc1nc(Nc2ccc(C#N)cc2)nc(N)c1Br ; strain: IIIB ; changes: NNRTI-resistant (RT K103N) ; read by: MTT ; value: 0.00235 µM
CC(C)Cn1cc(C(=O)O)c(=O)c2cc(Br)c(Oc3ccnc(Nc4ccc(C#N)cc4)n3)cc21 ; strain: IIIB ; changes: K103N Y181C NNRTI-resistant ; read by: MTT ; value: ≥7.99 µM
CC(C)c1nc(CN(C)C(=O)N[C@H](C(=O)N[C@@H](Cc2ccccc2)C[C@H](O)[C@H](Cc2ccccc2)NC(=O)OCc2cncs2)C(C)C)cs1 ; strain: HXB2 ; changes: RT-A62V S68G T69N V75I F77L F116Y Q151M ; read by: cytopathic effect ; value: >5 µM
CCN[C@H]1CO[C@@H]2OCC[C@H](OC(=O)N[C@@H](Cc3ccccc3)[C@H](O)CN(CC(C)C)S(=O)(=O)c3ccc4nc(NC5CC5)sc4c3)[C@@H]21 ; strain: NL4-3 ; changes: L10I I15V K20R L24I V32I M36I M46I I54V I62V L63P K70Q V82A L88M ; read by: p24 / luminescence ; value: 0.0016 µM
CCC(Cc1ccccc1)c1cc(O)c(C(c2cccc(NS(=O)(=O)c3ccc(C#N)cc3)c2)C2CC2)c(=O)o1 ; strain: IIIB ; read by: p24 ; value: 1.6 µM
N#Cc1ccccc1CN1CCC(N=C2C=C(Cc3ccc(Cl)cc3Cl)NS(=O)(=O)N2)CC1 ; strain: IIIB ; read by: MTT ; value: 23.15 µM
Cc1cn([C@H]2C[C@H](N=[N+]=[N-])[C@@H](COC(=O)CCC(=O)OC[C@H]3O[C@@H]4O[C@H]5[C@H](O)[C@@H](O)[C@@H](O[C@H]6[C@H](O)[C@@H](O)[C@@H](O[C@H]7[C@H](O)[C@@H](O)[C@@H](O[C@H]8[C@H](O)[C@@H](O)[C@@H](O[C@H]9[C@H](O)[C@@H](O)[C@@H](O[C@H]%10[C@H](O)[C@@H](O)[C@@H](O[C@H]3[C@H](O)[C@H]4O)O[C@@H]%10CO)O[C@@H]9CO)O[C@@H]8CO)O[C@@H]7CO)O[C@@H]6CO)O[C@@H]5CO)O2)c(=O)[nH]c1=O ; strain: IIIB ; read by: cytopathic effect / MTT ; value: 0.018 µg/mL
O=c1oc(C(CC2CC2)CC2CC2)cc(O)c1C(c1cccc(NS(=O)(=O)c2cccc3cccnc23)c1)C1CC1 ; strain: IIIB ; read by: p24 ; value: 2.3 µM
COC(=O)[C@@H](Cc1c[nH]c2ccccc12)NP(=O)(OC[C@H]1C=C[C@@H](n2cnc3c(N)ncnc32)C1)Oc1ccccc1 ; strain: IIIB ; read by: cytopathic effect / MTS ; value: 0.16 µM
Cc1ccccc1CN1CCC(N=C2C=C(Cc3cccc4ccccc34)NS(=O)(=O)N2)CC1 ; strain: RES056 ; changes: RT-K103N Y181C ; read by: MTT ; value: >107 µM
COC(=O)[C@@H](CCSC)NP(=O)(OC[C@H]1C=C[C@@H](n2cnc3c(N)ncnc32)C1)Oc1ccccc1 ; strain: IIIB ; read by: cytopathic effect / trypan blue ; value: 4.07 µM
COc1ccc2c(O)c(C(c3cccc(NS(=O)(=O)c4cn(C)cn4)c3)C3CC3)c(=O)oc2c1 ; strain: IIIB ; read by: p24 ; value: >>10 µM

The last 7 rows once more:

structure,strain,changes,read by,value
N#Cc1ccccc1CN1CCC(N=C2C=C(Cc3ccc(Cl)cc3Cl)NS(=O)(=O)N2)CC1,IIIB,-,MTT,23.15 µM
Cc1cn([C@H]2C[C@H](N=[N+]=[N-])[C@@H](COC(=O)CCC(=O)OC[C@H]3O[C@@H]4O[C@H]5[C@H](O)[C@@H](O)[C@@H](O[C@H]6[C@H](O)[C@@H](O)[C@@H](O[C@H]7[C@H](O)[C@@H](O)[C@@H](O[C@H]8[C@H](O)[C@@H](O)[C@@H](O[C@H]9[C@H](O)[C@@H](O)[C@@H](O[C@H]%10[C@H](O)[C@@H](O)[C@@H](O[C@H]3[C@H](O)[C@H]4O)O[C@@H]%10CO)O[C@@H]9CO)O[C@@H]8CO)O[C@@H]7CO)O[C@@H]6CO)O[C@@H]5CO)O2)c(=O)[nH]c1=O,IIIB,-,cytopathic effect / MTT,0.018 µg/mL
O=c1oc(C(CC2CC2)CC2CC2)cc(O)c1C(c1cccc(NS(=O)(=O)c2cccc3cccnc23)c1)C1CC1,IIIB,-,p24,2.3 µM
COC(=O)[C@@H](Cc1c[nH]c2ccccc12)NP(=O)(OC[C@H]1C=C[C@@H](n2cnc3c(N)ncnc32)C1)Oc1ccccc1,IIIB,-,cytopathic effect / MTS,0.16 µM
Cc1ccccc1CN1CCC(N=C2C=C(Cc3cccc4ccccc34)NS(=O)(=O)N2)CC1,RES056,RT-K103N Y181C,MTT,>107 µM
COC(=O)[C@@H](CCSC)NP(=O)(OC[C@H]1C=C[C@@H](n2cnc3c(N)ncnc32)C1)Oc1ccccc1,IIIB,-,cytopathic effect / trypan blue,4.07 µM
COc1ccc2c(O)c(C(c3cccc(NS(=O)(=O)c4cn(C)cn4)c3)C3CC3)c(=O)oc2c1,IIIB,-,p24,>>10 µM

ECn is the concentration giving n% inhibition of infection, replication or growth. Rows are shuffled and stem from different studies.